A negative result means that nothing was seen under these conditions. Protein sequences can lack the tags named with them.
Target: T1, VqsMt (truncated VqsM) (Pseudomonas aeruginosa PAO1) (UniProt Q9I1P2)
T1 sequence (looked up): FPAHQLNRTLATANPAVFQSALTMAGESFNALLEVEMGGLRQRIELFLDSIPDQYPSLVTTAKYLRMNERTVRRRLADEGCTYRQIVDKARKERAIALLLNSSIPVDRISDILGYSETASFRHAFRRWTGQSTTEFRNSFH
Test: EMSA
Conditions: 20 mM Tris-HCl pH 7.4, 50 mM KCl, 5 mM MgCl2, 10% glycerol, 3 ug/ml sheared salmon sperm DNA, room temperature 20 min, DNA 40-50 nM (footprint DNase I at 25 C), recombinant protein, residues 185-325, protein details: His6 (pMCSG7), probe letters rebuilt from the primers and the genome

Question: Does “ATTTCGGCGGCCTCCTGTCGCTCTTCCGCCGGCCCACAACCCGCCAACGCGATGGCCATAGCCAACGCCCCGATCCTTCCTATTGCACGCAAATCAGCCATGACACACCCGACCGTTGATTGAAAACGGATCGAATGGTACTTTTTCGAGCTAATTGAGTCAATATTGTCTCAAATGATCTTTTGACAGCTAATTCCTTTGGACGCGAGGCCAGTTTTCTGCACAATGCGCACAATCAGAAAAACCAACCGGGACCCATCGATGACCCTGATTTCCCATGACGAGCGACTCATCAAGGCGCTGGCAGTCGCT (double strand) [nfxB promoter]” bind?
Answer: Result: binds

Question: Does “AATCAGCCAAATATGGATTCGGCACCCGATATCCGGCACGTTGTACGGCAGTCCGAGAATCCCGGCTTCCTGCCGAGGCGCATGCGCCCGTGCCCGACGACCCCTGAAGATGTCCAGTCAGCCCACTCTATAGAGTTGGCGTTGTGCCGGAAAGGCACATTTCAGTCCCACTTAACAATAGACCGCAGCGTTTGATGCACCTAGTACGATACCCGTCCTAGAGGGTAAGCAAACGTTTAAATGTGATCTAGATCACATTTTATGCGAACTGAATACCCAGTCACACCTGGTCCCCGGGTTCACTGTCGGCCCATC (double strand) [lasR promoter]” bind (up to 1.0 uM)?
Answer: Result: no binding

Reference: article PMC4176358
